Compound potency records, mixed from different reports. Data source: NIAID ChemDB in PubChem.

Common to all: tests on isolated targets; agent: HIV-1; target: Integrase; method: 3′ processing; read-out: IC50

ICn: concentration for n% inhibition.

smiles	strain	result
O=C(Oc1c(-c2ccc(Cl)cc2)oc2ccccc2c1=O)c1cc(OCc2ccccc2)c(OCc2ccccc2)c(OCc2ccccc2)c1		>100 µM
Nc1ccn(C2CC(OP(=O)(O)OCC3OC(n4cnc5c(N)ncnc54)CC3OP(=O)(O)OCC3OC(n4cnc5c(=O)[nH]c(N)nc54)CC3O)C(CO)O2)c(=O)n1		57 µM
O=c1oc2c(O)c(O)cc3c(=O)oc4c(O)c(O)cc1c4c23		1.2 µM
CCOC(=O)CC1C/C(=C\c2ccc(O)c(O)c2)C(=O)/C(=C/c2ccc(O)c(O)c2)C1		2.8 µM
Cc1cn(C2CC(O)C(COP(=O)(O)OC3CC(n4ccc(N)nc4=O)OC3COP(=O)(O)O)O2)c(=O)[nH]c1=O		8 µM
Nc1c(C(=O)Nc2ccc(NC(=O)c3ccc4c(c3N)C(=O)c3ccccc3C4=O)c3c2C(=O)c2ccccc2C3=O)ccc2c1C(=O)c1ccccc1C2=O		>250 µM
CN(C)[C@@H]1C(=O)C(C(=O)NCNC(CO)(CO)CO)=C(O)[C@@]2(O)C(=O)C3=C(O)c4c(O)cccc4[C@@](C)(O)[C@H]3C[C@@H]12.Cl	RF	1.1 µM
CCOC(=O)C1C/C(=C\c2ccc(O)c(O)c2)C(=O)/C(=C/c2ccc(O)c(O)c2)C1		0.2 µM
CO[C@H]1/C=C/O[C@@]2(C)Oc3c(C)c(O)c4c(O)c(c(/C=N/N5C(C)CN(Cc6ccc([N+](=O)[O-])cc6)CC5C)c(O)c4c3C2=O)NC(=O)/C(C)=C\C=C\[C@H](C)[C@H](O)[C@@H](C)[C@@H](O)[C@@H](C)[C@H](OC(C)=O)[C@@H]1C	RF	20.6 µM
CC1CCN(C(=O)c2cc(Nc3ccnc4cc(Cl)ccc34)ccc2O)CC1		>250 µM
CN(C)[C@@H]1C(=O)C(C(=O)NCNC2(C(=O)[O-])CCCC2)=C(O)[C@@]2(O)C(=O)C3=C(O)c4c(O)cccc4[C@@](C)(O)[C@H]3C[C@@H]12.[Na+]	RF	1.3 µM
Cn1c(=O)c2cc3c(=O)n(C)c(=O)n(C)c3nc2n(C)c1=O		>250 µM
O=C1NC(=S)NC(=O)C1=Cc1cc(O)c(O)c(O)c1		1 µM
COc1cccc2c1C(=O)c1c(O)c3c(c(O)c1C2=O)C[C@@](O)(C(=O)CO)C[C@@H]3OC1CC(N2CCOCC2)C(O)[C@H](C)O1	RF	1.4 µM
O=C(O)c1ccc2ccc(/C=C/c3cc(O)c(O)c(O)c3)nc2c1O		2.4 µM
CN/N=C(/c1nc2ccc([N+](=O)[O-])cc2[nH]c1=O)C(O)c1ccc(C(O)/C(=N/NC)c2nc3ccc([N+](=O)[O-])cc3[nH]c2=O)cc1	RF	>160 µM
COC(=O)Nc1cc2c(cc1[N+](=O)[O-])OCCOCCOCCOCCO2		>250 µM
CN(C)[C@@H]1C(=O)C(C(N)=O)=C(O)[C@@]2(O)C(=O)C3=C(O)c4c(O)cccc4[C@@](C)(O)[C@H]3C[C@@H]12	RF	204 µM
Nc1ccn([C@H]2C[C@H](O)[C@@H](COP(=O)(O)O[C@H]3C[C@H](n4cnc5c(N)ncnc54)O[C@@H]3COP(=O)(O)O)O2)c(=O)n1		6 µM
O=C1NC(=O)C(=Cc2cc(O)c(O)c(O)c2)C(=O)N1		3 µM
COc1c(O)cc2c(c1O)[C@@H]1O[C@H](CO)[C@@H](O)[C@H](O)[C@H]1OC2=O		>100 µM
O=c1cc(-c2c(O)cc(O)cc2O)oc2cc(O)cc(O)c12		199 µM
O=c1c(O)c(-c2ccc(Cl)cc2)oc2ccccc12		>100 µM
NC(CCSSCCC(N)P(=O)(O)O)P(=O)(O)O	RF	294 µM
COc1cc(C(=O)Oc2c(-c3ccc(Cl)cc3)oc3ccccc3c2=O)cc(OC)c1OC(C)=O		>100 µM
Cc1cn(C2CC(OP(=O)(O)OCC3OC(n4ccc(N)nc4=O)CC3O)C(COP(=O)(O)O)O2)c(=O)[nH]c1=O		35 µM
COc1cc(C(=O)Oc2c(-c3ccc(Cl)cc3)oc3ccccc3c2=O)cc(OC)c1O		>100 µM
Nc1ccn(C2CC(OP(=O)(O)OCC3OC(n4cnc5c(N)ncnc54)CC3O)C(COP(=O)(O)O)O2)c(=O)n1		105 µM
CC(=O)Oc1ccc(/C=C/C(=O)Oc2c(-c3ccc(Cl)cc3)oc3ccccc3c2=O)cc1OC(C)=O		>100 µM
CN(C)[C@@H]1C(=O)C(C(=O)NCN2CCCC2)=C(O)[C@@]2(O)C(=O)C3=C(O)c4c(O)cccc4[C@@](C)(O)[C@H]3C[C@@H]12	RF	28 µM

Repeating the first 4 entries:

{"smiles": "O=C(Oc1c(-c2ccc(Cl)cc2)oc2ccccc2c1=O)c1cc(OCc2ccccc2)c(OCc2ccccc2)c(OCc2ccccc2)c1", "result": ">100 µM"}
{"smiles": "Nc1ccn(C2CC(OP(=O)(O)OCC3OC(n4cnc5c(N)ncnc54)CC3OP(=O)(O)OCC3OC(n4cnc5c(=O)[nH]c(N)nc54)CC3O)C(CO)O2)c(=O)n1", "result": "57 µM"}
{"smiles": "O=c1oc2c(O)c(O)cc3c(=O)oc4c(O)c(O)cc1c4c23", "result": "1.2 µM"}
{"smiles": "CCOC(=O)CC1C/C(=C\\c2ccc(O)c(O)c2)C(=O)/C(=C/c2ccc(O)c(O)c2)C1", "result": "2.8 µM"}

An empty or dashed field is not shown. Neighbouring rows are from separate reports.